Data as given in patent EP0852148B1, “Products having anti-microbial activity” (SION MICROTEC LTD., priority 1997, dated 1998).
Structures can show the parent of a compound that is named as a salt.

Assay: Release of radioactive CHXH from cotton gauze into L.B. medium
Settings: 5 ml L.B. medium renewed every 24 hours

Q: For `N=C(NCCCCCCNC(=N)NC(=N)Nc1ccc(Cl)cc1)NC(=N)Nc1ccc(Cl)cc1` [CHXH, chlorohexidine hydrochloride], which sustained-release profile (20 days) is on record?
A: almost linear

Q: And the “amount of CHXH released, of the amount contained in the gauze after washing 3 times” value (during the 20 days)?
A: about 4%
